Results deposited as PubChem BioAssay AID504761 (Drosophila RNAi Screening Center, 2011).
Aim: 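Genome-wide fly cell screen for genes dengue virus requires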 (primary screen). Cells: D.Mel-2 cells from Drosophila. Knock-down reagent: long dsRNA against Drosophila genes. Challenge: infection with dengue virus type 2; dose and infection time not stated. Read-out: 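Per well on two replicate plates, imaging gave the percent of cells positive for viral envelope protein, ranked by infection, and a nuclear count of cells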. Reading the numbers: infection score: higher = more virus-infected cells; cell count: higher = more cells in the well. Active means: 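Low infection ranks in the two replicates (chance level up to 0.065) followed by a retest with a 1.5-fold or larger significant decrease, p below 0.05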. Calls: active = confirmed: knock-down lowers infection; inactive = not picked or not confirmed.
The screen tested about 22,000 reagents; this is an unselected part of those with a known target gene and a result. In the full data, 116 (0.52%) got an active call. 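Calls depend on retest data that are not deposited; infection was ranked per plate without normalising between plates; the unit of the infection score is not given.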 The raw values are shown without normalisation. Not given: the amount of reagent, the time to read-out.

no.	gene	DRSC id	infection score, replicate 1	infection score, replicate 2	cell count, replicate 1	cell count, replicate 2	activity call
1	Rpn10 (Regulatory particle non-ATPase 10)	DRSC11876	9.3	9.86	3989	3916	inactive
2	CG9799	DRSC16567	13.2	20.6	5730	5787	inactive
3	Wwox (WW domain containing oxidoreductase)	DRSC03030	1.39	7.4	5693	5800	inactive
4	Wwox (WW domain containing oxidoreductase)	DRSC22872	0.76	5.32	6177	6106	inactive
5	Wwox (WW domain containing oxidoreductase)	DRSC25933	1.41	5.19	6311	6187	inactive
6	CG42553	DRSC08356	1.01	4.54	6127	5725	inactive
7	CG17105	DRSC02574	0.48	2.26	6660	6859	inactive
8	CG17105	DRSC26156	8.01	3.52	6404	6245	inactive
9	Arpc5 (Actin-related protein 2/3 complex, subunit 5)	DRSC00730	6.43	2.58	6068	5940	inactive
10	CG9519	DRSC20195	3.47	3.89	6401	6400	inactive
11	CG9519	DRSC28137	28	4.89	5664	6484	inactive
12	Cdc6 (Cell division cycle 6)	DRSC10563	7.01	13.9	1896	4193	inactive
13	CG30075	DRSC05484	1.66	2.43	6068	6092	inactive
14	CG17068	DRSC20545	11.2	5.4	6780	6411	inactive
15	Prp31 (Pre-mRNA processing factor 31)	DRSC10735			119	514	inactive
16	LanA (Laminin A)	DRSC11207	4.22	8.13	6849	6749	inactive
17	nbs	DRSC11373	7.03	1.43	5917	6563	inactive
18	nbs	DRSC23793	2.84	1.05	5597	5829	inactive
19	CG7484	DRSC10853	6.09	1.99	6007	6190	inactive
20	vih (vihar)	DRSC09778	3.66	3.46	3957	3379	inactive
21	vih (vihar)	DRSC23625	1.11	1.48	5417	5608	inactive
22	CG12725	DRSC19501	6.22	6.8	1174	1881	inactive
23	CG12725	DRSC24026	7.31	7.24	6296	6585	inactive
24	CR18275 (pseudo)	DRSC18151	6.06	1.47	5367	6888	inactive
25	CR18275 (pseudo)	DRSC28716	10.2	26.2	5839	6090	inactive
26	Daao2 (D-amino acid oxidase 2)	DRSC02135	11.7	15.8	5818	5398	inactive
27	CG13454	DRSC10001	6.17	3.25	6451	6218	inactive
28	Nct (Nicastrin)	DRSC16172	16.3	18.7	6367	6655	inactive
29	Cpr67Fa2 (Cuticular protein 67Fa2)	DRSC10315	2.22	5.36	6071	6181	inactive
30	CG15708	DRSC06579	5.65	9.26	1629	4192	inactive
31	CG3634	DRSC11747	4.39	3.74	6151	6583	inactive
32	Mlc-c (Myosin light chain cytoplasmic)	DRSC18683	1.83	5.09	5676	6175	inactive
33	Mlc-c (Myosin light chain cytoplasmic)	DRSC26543	2.77	2.44	6144	6434	inactive
34	CG42342	DRSC13165	2.83	0.44	5972	5661	inactive
35	CG42342	DRSC15010	4.74	14.7	6651	6945	inactive
36	CG42342	DRSC15011	0.97	10.6	6507	6011	inactive
37	CG42342	DRSC15012	6.14	27.2	6761	4987	inactive
38	CG42342	DRSC21791	2.08	1.44	6679	6739	inactive
39	CG42342	DRSC22861	1.52	5.83	5719	6569	inactive
40	CG42342	DRSC23112	2.78	1.61	6411	7019	inactive
41	CG42342	DRSC24200	4.57	4.57	5709	5642	inactive
42	CG42342	DRSC25912	4.17	1.07	5610	5791	inactive
43	CG42342	DRSC28157	24.9	10.9	5606	6821	inactive
44	Evi5 (Ecotropic viral integration site 5)	DRSC19421	3.79	2.87	6456	6965	inactive
45	Evi5 (Ecotropic viral integration site 5)	DRSC27334	5.54	20.3	6355	6386	inactive
46	CG9876	DRSC04586	7.47	7.87	6186	6331	inactive
47	bam (bag of marbles)	DRSC16907	20.2	2.08	5642	6775	inactive
48	CG14492	DRSC06463	15.1	14.6	6833	5671	inactive
49	sPLA2 (secretory Phospholipase A2)	DRSC06041	3.42	10.2	6499	6760	inactive
50	sPLA2 (secretory Phospholipase A2)	DRSC26194	19	1.33	5714	6110	inactive
51	CG4000	DRSC15535	7.97	8.77	6310	6339	inactive
52	CG4000	DRSC21547	1.35	3.32	5937	6204	inactive
53	CG4000	DRSC25094	3.74	1.62	6713	6287	inactive
54	ND-20L (NADH dehydrogenase (ubiquinone) 20 kDa subunit-like)	DRSC15414	3.21	9.33	6916	4960	inactive
55	Roe1	DRSC07534	3.81	15.2	5833	5763	inactive
56	Roe1	DRSC26435	1.19	5.61	5613	5399	inactive
57	CG11382	DRSC18624	0.26	4.3	6444	6692	inactive
58	CtBP (C-terminal Binding Protein)	DRSC16617	16.6	14.8	5341	4475	inactive
59	CtBP (C-terminal Binding Protein)	DRSC23712	2.99	2.2	5379	5225	inactive

Reformatted: entries from further up
| gene | DRSC id | infection score, replicate 1 | infection score, replicate 2 | cell count, replicate 1 | cell count, replicate 2 | activity call |
| --- | --- | --- | --- | --- | --- | --- |
| CG42342 | DRSC25912 | 4.17 | 1.07 | 5610 | 5791 | inactive |
| CG42342 | DRSC28157 | 24.9 | 10.9 | 5606 | 6821 | inactive |
| Evi5 (Ecotropic viral integration site 5) | DRSC19421 | 3.79 | 2.87 | 6456 | 6965 | inactive |
| Evi5 (Ecotropic viral integration site 5) | DRSC27334 | 5.54 | 20.3 | 6355 | 6386 | inactive |
| CG9876 | DRSC04586 | 7.47 | 7.87 | 6186 | 6331 | inactive |
| bam (bag of marbles) | DRSC16907 | 20.2 | 2.08 | 5642 | 6775 | inactive |
| CG14492 | DRSC06463 | 15.1 | 14.6 | 6833 | 5671 | inactive |
